{"source": "paper PMC10506467", "about": "“Structural and functional studies of PCNA from African swine fever virus” (Journal of Virology, 2023)", "proteins": {"B1": {"name": "African swine fever virus proliferating cell nuclear antigen (natural protein)", "chain": "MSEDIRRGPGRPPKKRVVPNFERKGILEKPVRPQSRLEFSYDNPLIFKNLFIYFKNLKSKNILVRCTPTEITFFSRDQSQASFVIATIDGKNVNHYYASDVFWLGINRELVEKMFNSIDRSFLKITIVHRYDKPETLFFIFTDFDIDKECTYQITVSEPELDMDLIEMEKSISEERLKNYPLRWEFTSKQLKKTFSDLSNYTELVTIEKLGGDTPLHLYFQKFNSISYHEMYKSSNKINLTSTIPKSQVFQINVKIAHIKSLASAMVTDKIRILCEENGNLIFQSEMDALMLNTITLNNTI"}}, "target": "the molecule itself", "test": "SEC", "data": [{"protein": "B1", "values": [{"measurement": "stoichiometry N", "value": 3}]}]}
